Measured values from ChEMBL document CHEMBL1255389, “Exploiting the drug-activating properties of a novel trypanosomal nitroreductase” (Antimicrob Agents Chemother, 2010).

How the values were obtained:
[1] = Therapeutic index, ratio of IC50 against human THP1 cells to IC50 against Trypanosoma brucei; type: cell-based; conditions: thp-1
Trypanosoma brucei = assay: Antiparasitic activity against Trypanosoma brucei BSF after 3 days by Alamar blue assay

Question: Which Ratio IC50 [1] does the source give for `O=C(OCc1ccc([N+](=O)[O-])cc1)N(CCCl)CCCl` here?
Answer: Its Ratio IC50 is 36.

Question: And the IC50 (Trypanosoma brucei)?
Answer: Its IC50 is 1800 nM.
